These are literature values, as cited in US20240350385A1 (priority 2023, published 2024).

The series relates to palmar hyperhidrosis. As to conditions: injections, for three weeks to six months.

Regarding onabotulinum toxin A, the sweat reduction is reported as 25-50%.
